Assay results as given in PMC6894747 (PLoS Pathogens, 2019).
Positions of bridges follow the written chain, without caps; N, C: chain ends. Residues, ends and D or L forms follow the SMILES beside them. No end group written: not given here.

Test system: rhesus monkey IgG
Assay: Isothermal titration calorimetry (ITC)
Type: binding
Settings: for ΔH / ΔS: ITC, 300 μM peptide into 30 μM rhesus monkey IgG, PBS, 25 °C
Experimental: ITC assay was performed with an ITC microcalorimeter instrument (NANO ITC, TA Instruments, Lindon, UT) as described previously. In brief, 300 μM peptides were dissolved in PBS and injected into the chamber containing 30 μM of rhesus monkey IgG. The experiments were carried out at 25 °C. The time between injections was 300 s, and the stirring speed was 300 rpm. The heats of dilution were determined in control experiments by injecting peptides into PBS and then subtracting from the heats produced in the corresponding peptide-IgG binding experiments. Data acquisition and analysis were performed using the Origin software, and the best fitting curves were generated with GraphPad Prism.

| Compound | ΔH | ΔS | fold more potent binding to monkey IgG than IBP (ITC Kd comparison with IBP) |
| --- | --- | --- | --- |
| CC(C)C[C@@H]1NC(=O)[C@H](Cc2c[nH]cn2)NC(=O)[C@H](Cc2c[nH]c3ccccc23)NC(=O)[C@H](C)NC(=O)[C@@H](NC(=O)[C@@H](N)CC(=O)O)CSSC[C@@H](C(=O)N[C@H](C(=O)O)[C@@H](C)O)NC(=O)[C@H](Cc2c[nH]c3ccccc23)NC(=O)[C@H](C(C)C)NC(=O)[C@H](CC(C)C)NC(=O)[C@H](CCC(=O)O)NC(=O)CNC1=O [IBP] | -16.90 kJ/mol | 50.79 J/mol.K |  |
| MTWEEWDKKIEEYTKKIEELIKKS [CP24, reference compound] | -25.61 kJ/mol | -28.46 J/mol.K |  |
| CC[C@H](C)[C@H](NC(=O)[C@H](CC(C)C)NC(=O)[C@H](CCC(=O)O)NC(=O)[C@H](CCC(=O)O)NC(=O)[C@@H](NC(=O)[C@H](CCCCN)NC(=O)[C@H](CCCCN)NC(=O)[C@@H](NC(=O)[C@H](Cc1ccc(O)cc1)NC(=O)[C@H](CCC(=O)O)NC(=O)[C@H](CCC(=O)O)NC(=O)[C@@H](NC(=O)[C@H](CCCCN)NC(=O)[C@H](CCCCN)NC(=O)[C@H](CC(=O)O)NC(=O)[C@H](Cc1c[nH]c2ccccc12)NC(=O)[C@H](CCC(=O)O)NC(=O)[C@H](CCC(=O)O)NC(=O)[C@H](Cc1c[nH]c2ccccc12)NC(=O)[C@@H](NC(=O)[C@H](CCSC)NC(=O)[C@@H](NC(=O)[C@@H]1CSSC[C@H](NC(=O)[C@@H](N)CC(=O)O)C(=O)N[C@@H](C)C(=O)N[C@@H](Cc2c[nH]c3ccccc23)C(=O)N[C@@H](Cc2c[nH]cn2)C(=O)N[C@@H](CC(C)C)C(=O)NCC(=O)N[C@@H](CCC(=O)O)C(=O)N[C@@H](CC(C)C)C(=O)N[C@@H](C(C)C)C(=O)N[C@@H](Cc2c[nH]c3ccccc23)C(=O)N1)[C@@H](C)O)[C@@H](C)O)[C@@H](C)CC)[C@@H](C)O)[C@@H](C)CC)C(=O)N[C@@H](CCCCN)C(=O)N[C@@H](CCCCN)C(=O)N[C@@H](CO)C(=O)O [IBP-CP24] (H-DCAWHLGELVWCTMTWEEWDKKIEEYTKKIEELIKKS-OH; disulfide 2-12; N-terminus and C-terminus assumed) | -54.23 kJ/mol | -66.54 J/mol.K | about 1.6 fold |
